Compound potency records, mixed from different reports. Data source: NIAID ChemDB in PubChem.

All rows: tests in culture; species: Mycobacterium tuberculosis

MIC bound: limit read from a one-dose screen. Rows are shuffled and stem from different studies. ECn: concentration that inhibits the pathogen or its effect by n%. MIC50, MIC90 and the like: level of inhibition, or share of isolates inhibited. An empty or dashed field is not shown. Percent inhibition refers to the dose given; in toxicity tests it is the harm to the cells.

SMILES,changes,method,endpoint,strain or isolate,tested at,value
O=[N+]([O-])c1ccccc1CNCC1CCCC(CNCc2ccccc2[N+](=O)[O-])C1,,,inhibition,H37Rv,20 µM,0%
CNC(=O)c1c(-c2ccc(NC(C)=O)cc2)oc2cc(O)cc(CN3CCCCC3)c12,,resazurin / fluorescence,MIC,mc(^2)7000,,>20 µM
O=C(O)c1c2n(c3cc([N+](=O)[O-])c(N4CCN(C(=O)c5ccco5)CC4)cc3c1=O)CS2,MDR-TB,agar,MIC,H37Rv,,1.71 µM
O=[N+]([O-])c1ccc(CSc2nnc(-c3ccc([N+](=O)[O-])o3)s2)cc1,,,MIC,H37Rv,,3.13 µg/mL
NC(N)=Nc1ccc(-c2ccc(-c3ccc(N=C(N)N)cc3Cl)o2)c(Cl)c1,,,inhibition,,12.5 µg/mL,0%
CCCCc1cn(Cc2ccc(Oc3ccc(Cl)cc3O)c(Cl)c2)nn1,,MTT,MIC,H37Rv,,>100 µg/mL
CC12CCC3=C4CCC(=O)C=C4CCC3C1CCC(=O)O2,,BACTEC,MIC bound,H37Rv,,>12.5 µg/mL
Cc1cc(N=C(N)N)ccc1-c1ccc(-c2ccc(N=C(N)N)cc2C)o1,,,EC50,,,>12.5 µg/mL
O=C(O)c1c2n(c3cc([N+](=O)[O-])c(N4CCC(N5CCCCC5)CC4)cc3c1=O)CS2,MDR-TB,agar,MIC,H37Rv,,1.75 µM
CC(=O)Oc1ccc([C@@H]2CC(=O)c3c(cc(OC(C)=O)c(-c4c(OC(C)=O)cc5c(c4OC(C)=O)C(=O)C[C@@H](c4ccc(OC(C)=O)cc4)O5)c3OC(C)=O)O2)cc1,,,MIC,,,>12.5 µg/mL
CC(C)(C)OC(=O)NC1C2CN(c3cc4c(=O)c(C(=O)O)c5n(c4cc3[N+](=O)[O-])CS5)CC21,,agar,MIC,H37Rv,,0.4 µM
O=C1C[C@@H](c2ccc(O)cc2)Oc2c1c(O)cc(O[C@@H]1O[C@H](CO)[C@@H](O)[C@H](O)[C@H]1O)c2[C@H]1C(=O)c2c(O)cc(O)cc2O[C@@H]1c1ccc(O)cc1,,,MIC,,,>12.5 µg/mL
CCOC(=O)c1[nH]c(C)c(/C(C)=N\NC(N)=O)c1C,,BACTEC,MIC bound,H37Rv,,>12.5 µg/mL
Cc1cc(C(=O)NCc2ccc(Oc3ccc(Cl)cc3Cl)c(O)c2)no1,,MTT,MIC,H36Rv,,3 µg/mL
S=c1nc(-c2ccnc(-c3nc(=S)[nH][nH]3)c2)[nH][nH]1,,BACTEC,inhibition,H37Rv,12.5 µg/mL,0%
O=C(c1ccccc1)c1ccc(Oc2ccc(Cl)cc2Cl)c(O)c1,InhA overexpression,MTT,MIC,mc4914,,100 µg/mL
CNC(=O)c1c(-c2ccccc2)oc2cc(OCCN)cc(CN3CCCCC3)c12,,resazurin / fluorescence,MIC34,mc(^2)7000,,40 µM
CCCCCCCCc1ccc(OCCOC(=O)/C=C\C(=O)NC(N)=O)cc1,,BACTEC,MIC bound,H37Rv,,>12.5 µg/mL
CO/C(=N\N=C\c1ccc(C(F)(F)F)cc1)c1ccncc1,,,MIC,H37Rv,,>20 µg/mL
CCOC(=O)Oc1c(OC)cc(C(=O)O[C@@H]2C[C@@H]3CN4CCc5c([nH]c6cc(OC)ccc56)[C@H]4C[C@@H]3[C@H](C(=O)OC)[C@H]2OC)cc1OC,,BACTEC,MIC bound,H37Rv,,>12.5 µg/mL
CCOC(=O)c1c(-c2ccccc2)oc2ccc(O)c(CCCCN3CCC3)c12,,resazurin / fluorescence,MIC,mc(^2)7000,,<0.08 µM
O=C(O)c1c2n(c3cc(F)c(N4CCN(Cc5ccc6c(c5)OCO6)CC4)cc3c1=O)CS2,MDR-TB,agar,MIC,H37Rv,,13.31 µM
FC(F)(F)c1ccccc1CNCC1CCCC(CNCc2ccccc2C(F)(F)F)C1,,,inhibition,H37Rv,20 µM,0%
CC1=C(O)C(C)(CCC(C)C)SC1=O,,,MIC50,H37Rv,,230 µM
COc1cc(O)cc(CCCCCCC/C=C\CCCCCCCc2cc(O)c(C)c(O)c2)c1,,,MIC,H37Rv,,47.1 µg/mL
COc1cc(/C=N\n2c(Cc3cccs3)n[nH]c2=S)cc(OC)c1OC,,,inhibition,H37Rv (ATCC 27294),6.25 µg/mL,43%
Cc1[nH]c(=O)[nH]c(=O)c1/C=C/C(=O)NC(CO)CC(C)C,,BACTEC,inhibition,H37Rv,12.5 µg/mL,0%
O=c1cc(-c2cccc(-c3cccc4c(=O)cc(-c5ccccc5)oc34)c2)oc2ccccc12,,,EC50,,,>12.5 µg/mL
CNC(=O)c1c(-c2cccc(OC)c2)oc2cc(OC)cc(CN3CCCCC3)c12,,resazurin / fluorescence,MIC,mc(^2)7000,,>20 µM
CC1(C)[C@H]2CC[C@@H](CNCCNCC(c3ccccc3)c3ccccc3)[C@@H]1C2,,,MIC,H37Rv,,1 µM
O=C(O)c1ccc(N=NC2Sc3nc4ccccc4n3C2=O)cc1,,BACTEC,inhibition,H37Rv,12.5 µg/mL,38%
O=C(Nc1nccs1)c1cnccn1,,,inhibition,H37Rv,6.25 µg/mL,0%
CC(C)=CCC1(C)SC(=O)C(C)=C1O,,,MIC90,H37Rv,,>300 µM
CCCCCC[N+]12CC=C3COC(=O)C(C)(O)C(C)(O)C(C)C(=O)OC(CC1)C32.[Br-],,BACTEC,MIC bound,H37Rv,,>12.5 µg/mL
CO/C(=N\N=C\c1ccc(OC)c(F)c1)c1ccncc1,,,MIC,H37Rv,,>20 µg/mL
COc1ccc(/C=N\n2c(Cc3cccs3)n[nH]c2=S)cc1,,,inhibition,H37Rv (ATCC 27294),6.25 µg/mL,54%
CCS(=O)(=O)c1nnc(-c2ccc([N+](=O)[O-])o2)s1,,,MIC,H37Rv,,6.25 µg/mL
C1CCCC(NCCNCC23CC4CC(CC(C4)C2)C3)CCC1,,,MIC,H37Rv,,1 µM
C=C/C(C)=C/[C@@]1(C)SC(=O)C(C)=C1O,,,MIC90,H37Rv,,125 µM
COc1ccc(CC2C3=C(CCCC3)CCN2c2cc3c(=O)c(C(=O)O)c4n(c3cc2F)CS4)cc1,,agar,MIC,H37Rv,,12.33 µM
COc1ccc(CSc2nnc(-c3ccc([N+](=O)[O-])o3)s2)cc1,,,inhibition,H37Rv,6.25 µg/mL,0%
Oc1cc(CNC2CCCCC2)ccc1Oc1ccc(Cl)cc1Cl,InhA overexpression,MTT,MIC,mc4914,,12.5 µg/mL
COc1ccc(CNc2nc(=O)c3cc(C(F)(F)F)cc([N+](=O)[O-])c3o2)cc1OC,,resazurin,MIC90,H37Rv,,29.22 µg/mL
COc1cc(O)cc(CCCCCCC/C=C\CCCCCCCc2cc(O)cc(O)c2)c1,,,MIC,H37Rv,,160 µg/mL
O=[N+]([O-])c1cccc(CNCC2CCCC(CNCc3cccc([N+](=O)[O-])c3)C2)c1,,,inhibition,H37Rv,20 µM,0%
CCOCCCNCCNC(CC)CO,,,MIC,H37Rv,,150 µM
CS(=O)c1nnc(-c2ccc([N+](=O)[O-])o2)s1,,,inhibition,H37Rv,6.25 µg/mL,100%
CC(C)(C)c1cnc(C(=O)Nc2cc(Br)c(O)c(Br)c2)cn1,,,inhibition,H37Rv,6.25 µg/mL,54%
O=[N+]([O-])c1ccc(-c2nnc(S(=O)(=O)Cc3ccc(F)cc3Cl)s2)o1,,,inhibition,H37Rv,6.25 µg/mL,11%
O=C(O)c1cn2c(n1)CN(c1cc3c(=O)c(C(=O)O)c4n(c3cc1F)CS4)CC2,MDR-TB,agar,MIC,H37Rv,,0.22 µM
COc1cc(O)cc(CCCCCCC/C=C\CCCCCc2cc(O)cc(O)c2)c1,,,MIC,H37Rv,,50.2 µg/mL
CO/C(=N\N=C\c1ccc(OC)c(OC)c1)c1ccncc1,,,MIC,6 PI,,>20 µg/mL
CCOc1ccc(C(=O)Nc2ccc(C3=NCCN3)cc2)cc1C(=O)Nc1ccc(C2=NCCN2)cc1,,resazurin,inhibition,H37Rv,6.25 µg/mL,5%
Fc1ccccc1CNCC1CCCC(CNCc2ccccc2F)C1,,,inhibition,H37Rv,20 µM,0%
COc1ccc2c(c1)[n+]([O-])c(S(=O)(=O)c1ccc(C)cc1)c(N)[n+]2[O-],,,MIC,CS-R,,>12.5 µg/mL
NNC(=O)c1ccncc1,,resazurin,MBC,H37Rv,,>60 µg/mL
COC(=O)C1C(OC(C)=O)C(C)C(O)C(C)(O)/C=C(\C)C2=C3C(=C(C)C(=O)c4c(O)c(c(C)c(OC(C)=O)c43)NC(=O)/C(C)=C/C=C\[C@](C)(O)C(O)[C@@H](C)C1O)OCO2,,BACTEC,inhibition,H37Rv,12.8 µg/mL,91%
CC(C)(C)c1cnc(C(=O)Nc2cc(Br)ccc2O)cn1,,,inhibition,H37Rv,6.25 µg/mL,0%
Cc1cc(=O)oc2cc(N)ccc12,,resazurin,MIC,3426,,1000 µg/mL
O=C(O)c1c2n(c3cc(F)c(N4CCC(n5c(=O)[nH]c6ccc(Cl)cc65)CC4)cc3c1=O)CS2,,agar,MIC,H37Rv,,1.56 µM
Cc1ccccc1C(C)(O)c1cnc(C)n1Cc1ccccc1,,,MIC bound,H37Rv,,>6.25 µg/mL
CCCCc1cn(Cc2ccc(Oc3ccc(Cl)cc3Cl)c(O)c2)nn1,INH RIF resistant,MTT,MIC,V2475,,>4.8 µg/mL
COC1C(O)=C2C(=O)OC(C)(O)/C=C/C=C/C=C/C=C\C(c3ccccc3)NC(=O)/C=C/C=C/C=C/C=C/C2(C)C1O,,,MIC,TAC-R,,>12.5 µg/mL
CCCCCCCCC(=O)c1cc(O)cc(O)c1,,,MIC,H37Rv,,6 µg/mL
C1CCCC(NCCNC2C3CC4CC(C3)CC2C4)CCC1,,,MIC,H37Rv,,6 µM
CC1=C(O)C(C)(CCC(C)CCCC(C)C)SC1=O,,,MIC50,H37Rv,,22 µM
CCSc1nnc(-c2ccc([N+](=O)[O-])o2)s1,,,MIC,H37Rv,,0.78 µg/mL
CSC(=S)N(C)/N=C/c1ccccn1,,BACTEC,MIC bound,H37Rv,,≤128 µg/mL
CNC(=O)c1c(-c2ccccc2)oc2cc(OCC(=O)OC)cc(CN3CCCCC3)c12,,resazurin / fluorescence,MIC16,mc(^2)7000,,40 µM
CCCCOC(=O)C(CC(C)C)NC(=O)C(CC(C)C)NC(=O)C1CCCN1,,resazurin,inhibition,H37Rv,6.25 µg/mL,-5%
Cc1csc(NC(=O)c2cnccn2)n1,,,inhibition,H37Rv,6.25 µg/mL,0%
CCOc1ccc(NC(=O)C(N=Nc2ccc(S(=O)(=O)NC3ONC(C)C3C)cc2)C(C)=O)cc1,,BACTEC,MIC bound,H37Rv,,>12.5 µg/mL
COc1cc(N=C(N)N)ccc1-c1ccc(-c2ccc(N=C(N)N)cc2OC)o1,,,MIC,,,12.5 µg/mL
C=CCN(CCNC/C=C(\C)CCC=C(C)C)C1CCCC1,,,MIC,H37Rv,,1 µM
CCOC(=O)C=C(c1ccc(OC)c(OC)c1)c1ccc(OC)c(OC)c1,,BACTEC,MIC bound,H37Rv,,>12.5 µg/mL
Fc1ccc(/C=N\n2c(Cc3cccs3)n[nH]c2=S)cc1,,,inhibition,H37Rv (ATCC 27294),6.25 µg/mL,60%
c1ccc(CNCC2CCCC(CNCc3ccccc3)C2)cc1,,,inhibition,H37Rv,20 µM,0%
O=[N+]([O-])c1cc(/C=N\n2c(Cc3cccs3)n[nH]c2=S)ccc1O,,,inhibition,H37Rv (ATCC 27294),6.25 µg/mL,87%
COc1cc(/C=C/c2ccccn2)oc(=O)c1,,BACTEC,inhibition,H37Rv,12.5 µg/mL,-14%
CC(C)=CCCC(C)CCC1(C)SC(=O)C(C)=C1O,,,MIC90,H37Rv,,56 µM
O=C1c2cscc2C(=O)c2sccc21,,resazurin,inhibition,H37Rv,6.25 µg/mL,22%
COc1ccc(/C(C)=N/NC(=O)c2ccncc2)c(OC)c1,,,MIC,16PI,,>20 µg/mL
O=C(Nc1cc(Br)c(O)c(Br)c1)c1cncc(Cl)n1,,,inhibition,H37Rv,6.25 µg/mL,69%
O=C1C2=C(Nc3cc([N+](=O)[O-])ccc3N2)OC1c1ccccc1Cl,,BACTEC,MIC bound,H37Rv,,>12.5 µg/mL
CC(C)=CCC/C(C)=C/CC/C(C)=C/CC/C(C)=C/CC/C(C)=C/CC/C(C)=C/CC/C(C)=C/CC/C(C)=C/CC[C@H](C)CCOP(=O)(O)C[C@@H]1O[C@H](CO)[C@@H](O)[C@@H]1O,,,MIC,H37Rv,,50 µM